Anti-infective test results gathered from many reports (values: NIAID ChemDB through PubChem).

All rows: target-level tests; species: HIV-1; protein: Reverse transcriptase

ICn is the concentration giving n% inhibition.

compound,mutations,read-out,read by,strain or isolate,result
c1ccc2c(c1)CCN(c1nn3c(-c4ccsc4)nnc3c3ccccc13)C2,,IC90,RT activity / fluorescence,98US_MSC5016,61.4 µM
CC(C)(O)C#Cc1ccc(NC(=O)CSc2nnnn2-c2cc(C(C)(C)C)ccc2Cl)c(Cl)c1,RT-K103 Y181C,IC50,PicoGreen / fluorescence,,<1 µM
CCN1c2ncc(CCOc3ccc(-c4csc(C(=O)O)c4)cc3C)cc2C(=O)N(C)c2cccnc21,,IC50,nucleotide incorporation / radiometric,IIIB,<0.05 µM
Cc1ccc(-c2c(OCC(=O)Nc3ccc(C#CC(C)(C)O)cc3Cl)n[nH]c2C)c(Cl)c1,RT-K103 Y181C,IC50,PicoGreen / fluorescence,,<1 µM
CCN1c2ncc(CCOc3ccc(-n4cc(C(=O)O)nn4)cc3C)cc2C(=O)N(C)c2cccnc21,,IC50,nucleotide incorporation / radiometric,IIIB,<0.05 µM
CC(=O)Nc1ccc2c(c1)CN(c1nn3c(C4CC4)nnc3c3ccccc13)CC2,,IC90,RT activity / fluorescence,KER2008,0.3 µM
CCN1c2ncc(CCOc3ccc(-c4ccc(CC(=O)O)cc4)cc3C)cc2C(=O)N(C)c2cccnc21,,IC50,nucleotide incorporation / radiometric,IIIB,<0.05 µM
CC(C)(C#Cc1ccc(NC(=O)CSc2nnnn2-c2ccc(C(C)(C)C)cc2Cl)c(Cl)c1)OCC(=O)Nc1cnccn1,,IC50,PicoGreen / fluorescence,WT,<1 µM
FC(F)(F)Cc1nnc2c3ccccc3c(N3CCc4ccccc4C3)nn12,,IC50,RT activity / fluorescence,IIIB,0.59 µM
CCN1c2ncc(CCOc3ccc(C(=O)Nc4ccccc4C(=O)O)cc3C)cc2C(=O)N(C)c2cccnc21,,IC50,nucleotide incorporation / radiometric,IIIB,<0.05 µM
CCc1cc(NCc2nc3c(C)ccc(C)c3o2)c(=O)[nH]c1C,RT-Y181W,IC50,nucleotide incorporation,,0.2961 µM
CCN1c2ncc(CCOc3ccc(NC(=O)CC(C)(C)C(=O)O)c4ccccc34)cc2C(=O)N(C)c2cccnc21,RT-K103N Y181C,IC50,nucleotide incorporation / radiometric,,0.1–1 µM
CC(C)(C)c1ccc(-n2nnnc2SCC(=O)Nc2ccc(C(=O)NCCc3ccc(O)c(O)c3)cc2Cl)c(Cl)c1,,IC50,PicoGreen / fluorescence,WT,<1 µM
CCN1c2ncc(CCOc3ccc(C(C)C(=O)O)c4ccccc34)cc2C(=O)N(C)c2cccnc21,RT-Y188L,IC50,nucleotide incorporation / radiometric,,>1 µM
CC(C)(C#Cc1ccc(NC(=O)CSc2nnnn2-c2ccc(C3CC3)cc2Cl)c(Cl)c1)OCCN1CCS(=O)(=O)CC1,,IC50,PicoGreen / fluorescence,WT,<1 µM
CCN1c2ncc(CCOc3ccc(-c4cnc(C)c(C)c4)cc3C)cc2C(=O)N(C)c2cccnc21,RT-K103N Y181C,IC50,nucleotide incorporation / radiometric,IIIB,<0.05 µM
COc1ccc2c(C3CC3)ccc(-n3c(Br)nnc3SCC(=O)Nc3ccc(S(=O)(=O)O)cc3Cl)c2c1,RT-Y181C,IC50,nucleotide incorporation / radiometric,,<0.05 µM
CCN1c2ncc(CCOc3ccc(/C=C(\C)C(=O)O)c4ccccc34)cc2C(=O)N(C)c2ccc(F)nc21,,IC50,nucleotide incorporation / radiometric,WT,<0.1 µM
CCN1c2ncc(CCOc3ccc(-c4ccc(F)c(CC(=O)O)c4)cc3C)cc2C(=O)N(C)c2cccnc21,,IC50,nucleotide incorporation / radiometric,IIIB,<0.05 µM
c1ccc2c(c1)CCN(c1nn3c(-c4cscn4)nnc3c3ccccc13)C2,,IC90,RT activity / fluorescence,KER2008,2.73 µM
O=C(CSc1nnnn1-c1cc(C(F)(F)F)ccc1Cl)Nc1ccc(-c2ccc(OCCN3CCCCC3)cc2)cc1Cl,RT-K103 Y181C,IC50,PicoGreen / fluorescence,,<1 µM
CCc1ccc(-n2c(SCC(=O)Nc3ccc(S(N)(=O)=O)cc3C)nnc2C(F)F)c2ccccc12,RT-Y188L,IC50,nucleotide incorporation / radiometric,,>0.1 µM
Cc1ccc(-c2nnsc2SCC(=O)Nc2ccc(-c3ccc(CC(=O)O)cc3)cc2Cl)c(Cl)c1,RT-K103 Y181C,IC50,PicoGreen / fluorescence,,<1 µM
CCN1c2ncc(CCOc3ccc(C(=O)O)c4ccccc34)cc2C(=O)N(C)c2ccc(F)nc21,RT-V106A,IC50,nucleotide incorporation / radiometric,,>1 µM
CCN1c2ncc(CCOc3ccc(-c4ccc(O)cc4)cc3C)cc2C(=O)N(C)c2cccnc21,,IC50,nucleotide incorporation / radiometric,IIIB,<0.05 µM
COC(=O)C(C)(C)C#Cc1ccc(NC(=O)CSc2nnnn2-c2cc(C(F)(F)F)ccc2Cl)c(Cl)c1,,IC50,PicoGreen / fluorescence,WT,<1 µM
O=C(CSc1nnc(Br)n1-c1ccc(C2CC2)c2ccccc12)Nc1ccc(C(=O)N[C@@H](Cc2ccc(O)cc2)C(=O)O)cc1Cl,RT-Y181C,IC50,nucleotide incorporation / radiometric,,<0.05 µM
Cc1ccc(-n2nnnc2SCC(=O)Nc2ccc(-c3nn[nH]n3)cc2Cl)c(Cl)c1,RT-K103 Y181C,IC50,PicoGreen / fluorescence,,<1 µM
CCN1c2ncc(CCOc3ccc(-c4ccc(Cl)c(C(=O)O)c4)cc3C)cc2C(=O)N(C)c2cccnc21,RT-K103N Y181C,IC50,nucleotide incorporation / radiometric,IIIB,0.05–0.1 µM
Cc1ccc(-n2nccc2SCC(=O)Nc2ccc(-c3ccc(CC(=O)O)cc3)cc2Cl)c(Cl)c1,RT-K103 Y181C,IC50,PicoGreen / fluorescence,,<1 µM
CCN1c2ncc(CCOc3ccc(C(C)CC(=O)O)c4ccccc34)cc2C(=O)N(C)c2cccnc21,,IC50,nucleotide incorporation / radiometric,WT,<0.1 µM
CN(O)C(=O)COC(C)(C)C#Cc1ccc(NC(=O)CSc2nnnn2-c2ccc(C(C)(C)C)cc2Cl)c(Cl)c1,RT-K103 Y181C,IC50,PicoGreen / fluorescence,,<1 µM
CCN1c2ncc(CCOc3ccc(C(=O)O)c4c3CCN(C(=O)OC)C4)cc2C(=O)N(C)c2cccnc21,RT-Y188L,IC50,nucleotide incorporation / radiometric,,0.1–1 µM

Repeating the final 2 entries:

compound	mutations	read-out	read by	strain or isolate	result
CN(O)C(=O)COC(C)(C)C#Cc1ccc(NC(=O)CSc2nnnn2-c2ccc(C(C)(C)C)cc2Cl)c(Cl)c1	RT-K103 Y181C	IC50	PicoGreen / fluorescence		<1 µM
CCN1c2ncc(CCOc3ccc(C(=O)O)c4c3CCN(C(=O)OC)C4)cc2C(=O)N(C)c2cccnc21	RT-Y188L	IC50	nucleotide incorporation / radiometric		0.1–1 µM

An empty or dashed field is not shown. Rows are shuffled and stem from different studies. a–b is a range or a potency band.